## Single amino acid changes in Zika NS2B-NS3 and viral growth

From the data files of Ni et al. 2025, doi:10.1038/s41467-025-63602-z.

Chain scanned (Zika virus MR766; NS2B from position 2 to 131, then the start of NS3):
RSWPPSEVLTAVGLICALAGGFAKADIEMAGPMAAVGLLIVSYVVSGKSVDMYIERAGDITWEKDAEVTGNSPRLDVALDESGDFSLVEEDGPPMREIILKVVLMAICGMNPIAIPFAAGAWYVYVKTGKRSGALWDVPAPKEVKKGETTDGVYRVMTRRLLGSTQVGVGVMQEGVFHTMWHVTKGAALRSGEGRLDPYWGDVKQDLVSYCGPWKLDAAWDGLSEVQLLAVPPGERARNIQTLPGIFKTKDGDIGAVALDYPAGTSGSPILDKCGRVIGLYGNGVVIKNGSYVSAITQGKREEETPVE

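Mutant virus pools were grown in human Huh-7.5 cells. Deep sequencing gave the change in frequency of each mutant relative to wild type, averaged over three replicate libraries (two for positions 207-308).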

The number is log2 of the effect relative to wild type; negative values mean reduced growth, higher values better tolerance.
Substitutions are written as wild-type residue, site number, new residue.
This list holds changes to valine only.
Position 1 still belongs to NS2A. In the paper, -1 or higher counts as tolerated.
Positions 1-103, 104-206 and 207-308 were made and measured as separate libraries.
Six mutants with high scores were retested singly and none clearly outgrew wild type, so positive values are not proof of better growth.

change,effect (log2)
G234V,-6.45
E235V,-2.08
R236V,1.23
A237V,-1.40
R238V,2.06
N239V,-6.27
I240V,0.94
Q241V,-6.88
T242V,-6.30
L243V,-1.94
P244V,-5.31
G245V,-6.91
I246V,0.83
F247V,-6.87
K248V,0.47
T249V,-5.99
K250V,-1.91
D251V,-6.25
G252V,-7.25
D253V,-6.38
I254V,-6.42
G255V,-7.66
A256V,-6.47
A258V,-6.14
L259V,-2.67
D260V,-5.81
Y261V,-5.00
P262V,-5.43
A263V,-6.99
G264V,-6.76
T265V,-4.04
S266V,-6.21
G267V,-7.06
S268V,-5.32
P269V,-5.81
I270V,-0.58
L271V,-1.35
D272V,-4.63
K273V,-1.13
C274V,-0.63
G275V,-5.54
R276V,-6.02
I278V,-4.63
G279V,-6.10
L280V,-5.26
Y281V,-6.36
G282V,-5.94
N283V,-5.98
G284V,-6.62
I287V,-0.20
K288V,-6.04
N289V,-6.18
G290V,-6.70
S291V,-4.36
Y292V,-5.24
S294V,-5.54
A295V,-6.29
I296V,-4.37
T297V,-5.15
Q298V,-5.65
G299V,-6.70
K300V,-3.70
R301V,-2.48
E302V,1.10
E303V,-1.00
E304V,-0.14
T305V,-0.76
P306V,-1.33
E308V,-0.26

Excerpt, the final 7 entries:

R301V read -2.48.
E302V read 1.10.
E303V read -1.00.
E304V read -0.14.
T305V read -0.76.
P306V read -1.33.
E308V read -0.26.